Assay results reported in patent publication US8278321B2 (priority 2008, dated 2012).

Tested on: Vero cells treated with shiga toxin
Test: cells
Assay type: cell-based, African green monkey

With `Fc1cc(F)c2c(c1)[C@H]1C=CC[C@H]1C(c1cccnc1)N2` (mixture of isomers) [GCA, Golgicide A] the “protection of Vero cells against the effects of shiga toxin” value was “highly protected” and the IC50 (Chlorocebus sabaeus, Vero, read-out: IC50 of inhibition of the effect of shiga toxin on protein synthesis) was 3.3 µM.
